Results as given in ChEMBL document CHEMBL4765355, “Synthesis of adenine dinucleosides SAM analogs as specific inhibitors of SARS-CoV nsp14 RNA cap guanine-N7-methyltransferase” (Eur J Med Chem, 2020).

Experiment: Selectivity index, ratio of IC50 for N-terminal His6-tagged human RNA-N7 MTase expressed in Escherichia coli to IC50 for N7-MTase activity of N-terminal His6-tagged SARS-CoV nsp14 expressed in Escherichia coli

Nc1ncnc2c1ncn2[C@@H]1O[C@H](CN(CCO[C@@H]2[C@H](O)[C@@H](CO)O[C@H]2n2cnc3c(N)ncnc32)S(=O)(=O)c2ccc(Cl)c([N+](=O)[O-])c2)[C@@H](O)[C@H]1O
Ratio IC50: 413
